Results of unrelated studies side by side (data: NIAID ChemDB).

All rows: host cell toxicity; endpoint: CC50

CCn: concentration that lowers growth or viability of the cells by n%. An empty or dashed field is not shown. Lines come from different laboratories, so protocols vary.

SMILES	method	cell line	value
Clc1ccc(-c2cc3c(-c4ccnc(NC5CCCC5)n4)ccc(NC4CCCC4)n3n2)cc1	-	VERO 76	>40 µM
O=C(O)C(O)c1ccccc1	MTS	Macrophage	>1000 µg/mL
O=C1Nc2ccc(Cl)cc2[C@@](C#CC2CC2)(C(F)(F)F)O1	MTT / crystal violet	Madin-Darby bovine kidney	>100 µg/mL
O=C(/C=C/c1ccc(O)c(O)c1)O[C@H]1[C@H](O)C[C@](O)(C(=O)O)C[C@H]1OC(=O)/C=C/c1ccc(O)c(O)c1	MTT	Hep2.2.15	>400 µg/mL
Nc1ccn([C@H]2CC[C@@H](CO)O2)c(=O)n1	trypan blue	1G5 T	>1 µM
C/C(=N\NC(=O)c1ccncc1)c1ccc(Cl)cc1Cl	MTT	HEL cells	11 µg/mL
N#Cc1nc2c(-c3nc4ccccc4[nH]3)c(N)n(Cc3cccc(C(F)(F)F)c3)c2nc1C#N	resazurin / fluorescence	L6 rat skeletal myoblasts	13 µM
Nc1nc2c(ncn2COC(CO)CO)c(=O)[nH]1	-	HELF	70 µM
O=c1[nH]c(=O)n([C@@H]2C[C@@H](O)[C@H](CO)O2)cc1/C=C/Br	-	HEL 299	>200 µM
C#CCCC(=O)CCCc1ccc(OC)c(OC)c1	-	HepG2	>20 µM
C#Cc1cn([C@@H]2O[C@H](CO)[C@@H](O)C2(F)F)c2ncnc(N)c12	XTT	Replicon cells	15.62 µM
N#Cc1nc2c(-c3nc4ccccc4[nH]3)c(N)n(Cc3ccc(O)cc3)c2nc1C#N	resazurin / fluorescence	L6 rat skeletal myoblasts	4 µM
COc1cc(F)cc(-c2ccc(C(=O)N(Cc3cccc(OCCCCCC(=O)OC(=O)O)c3)C(C)C)cc2)c1	-	BJ	>20 µM
Nc1nc2c(ncn2COCCO)c(=O)[nH]1	-	HEL 299	>200 µM
Nc1ncnc2c1c(-c1cccs1)cn2[C@H]1O[C@H](CO)[C@@H](O)C1(F)F	XTT	Replicon cells	>44 µM
Brc1ccc(-c2cc3c(-c4ccnc(NC5CCC5)n4)ccc(NC4CCC4)n3n2)cc1	-	VERO 76	>40 µM
O=C(NC1CC2(C1)CC(c1nc3cc(Cl)ccc3o1)C2)c1ccc(S(=O)CC2CC2)o1	absorbance	Primary human hepatocytes	>10 µM
Cc1nc2ccccc2n(CC(O)CO)c1=O	-	HepG2 2.2.15	>10 µM
COC(=O)C1=CO[C@@H](O)[C@@H]2C(CO)=CC[C@H]12	WST	SNU719	70 µM
Nc1ncnc2c1c(-c1ccco1)cn2[C@H]1O[C@H](CO)[C@@H](O)C1(F)F	XTT	Replicon cells	40.61 µM
CONC(=O)c1ccc(-c2ccc3nc(N)nc(OC(C)C)c3n2)cc1	-	Huh7	>20 µM
COc1cc2c(NC3CCN(C)CC3)nc(N3CCCN(C)CC3)nc2cc1OCc1ccccc1	fluorescence	JEG-3	2.2 µM
Cc1ccc(C)n1-c1ccc(C(=O)NN2C(=O)c3c(F)c(F)c(F)c(F)c3C2=O)cc1	MTT	Vero cells	260 µM
CCOC(=O)CCCCCOc1cccc(CN(C(=O)c2ccc(-c3cccc(C(F)(F)F)c3)cc2)C(C)C)c1	-	BJ	<7.5 µM
CC(=O)N[C@@H](CC(C)C)C(=O)N[C@@H](CC(C)C)C(=O)N[C@H](C=O)CCCN=C(N)N	-	L132	25 µg/mL
O=c1cnn([C@@H]2O[C@H](CO)[C@@H](O)[C@H]2O)c(=O)[nH]1	MTT / crystal violet	VERO 76	>100 µg/mL
O=C(NN1C(=O)c2c(Cl)c(Cl)c(Cl)c(Cl)c2C1=O)c1ccc(-n2cccc2)cc1	MTT	Lung adenocarcinoma cells	255 µM
CCOc1nc(N)nc2ccc(-c3cccc(NS(=O)(=O)c4c(C)noc4C)c3)nc12	-	Huh7	>20 µM
Nc1ncnc2c1c(-c1ccoc1)cn2[C@@H]1O[C@H](CO)[C@@H](O)C1(F)F	XTT	Replicon cells	20.05 µM
CCOC(=O)c1c(C)nc(OCCCNc2ccnc3cc(Cl)ccc23)nc1-c1ccccc1	MTS	MDCK cells	21.1 µM
N#Cc1nc2c(-c3nc4ccccc4[nH]3)c(N)n(CCc3cccc(Cl)c3)c2nc1C#N	resazurin / fluorescence	L6 rat skeletal myoblasts	52 µM
CC1CNC(=O)c2ccccc2SSc2ccccc2C(=O)N1	MTT / microscopy	HuT-78	>145 µM
Nc1ncnc2c1c(-c1ccccc1)cn2[C@@H]1O[C@H](CO)[C@@H](O)C1(F)F	XTT	Replicon cells	41.83 µM
CCn1cc(C(=O)O)c(=O)c2ccc(C)nc21	-	SK-K	125 µg/mL
Cc1ccc(C)n1-c1ccc(C(=O)NN2C(=O)c3ccccc3C2=O)cc1	MTT	Lung adenocarcinoma cells	235 µM
Nc1ccn([C@@H]2CS[C@H](CO)O2)c(=O)n1	MTT	MAGI	>100 µg/mL
CCOC(=O)CCCCCOc1cccc(CN(C(=O)c2ccc(-c3ccc4[nH]ccc4c3)cc2)C(C)C)c1	-	BJ	>20 µM
C/C(=N\NC(=O)c1ccncc1)c1ccccc1O	MTT	HEL cells	0.4 µg/mL
CC(C)CCn1c(N)c(-c2nc3ccccc3[nH]2)c2nc(C#N)c(C#N)nc21	resazurin / fluorescence	L6 rat skeletal myoblasts	85 µM
COC(=O)c1c(C)nc(NCCCNc2ccnc3cc(Cl)ccc23)nc1-c1ccccc1	MTS	MDCK cells	1.7 µM
COC(=O)N[C@@H]1[C@H](C)O[C@@H](OC2C/C=C(\C)[C@H]3C=C[C@H]4[C@H](O)[C@H](C)C[C@@H](C)[C@@H]4[C@@]3(C)/C(O)=C3/C(=O)OC4(C[C@H](C)C(CO)=C[C@H]4/C=C\2C)C3=O)C[C@@]1(C)N	MTT	CEM-TART lymphoblastoid cells	>100 µM
C[C@@H]1[C@H](O)[C@@H](CO)O[C@H]1n1ccc(N)nc1=O	MTT / crystal violet	VERO 76	>100 µg/mL
Oc1cccc(-c2cc3c(-c4ccnc(NC5CCCC5)n4)ccc(NC4CCCC4)n3n2)c1	-	VERO 76	>40 µM
Nc1ncnc2c1c(I)cn2[C@@H]1O[C@H](CO)[C@@H](O)[C@H]1F	XTT	Replicon cells	7.37 µM
Cc1ccc(C)n1-c1nc(-c2ccc([N+](=O)[O-])cc2)cs1	MTT	Lung adenocarcinoma cells	253 µM
CC(C)Oc1nc(N)nc2ccc(-c3ccc(C(=O)NC(C)(C)C)cc3)nc12	-	Huh7	>20 µM
O=[N+]([O-])c1ccc(-c2csc(-n3cccc3)n2)cc1	MTT	Lung adenocarcinoma cells	246 µM
N#Cc1c(-c2ccccc2)c(-c2ccccc2)nn(CC(O)CO)c1=O	-	HepG2 2.2.15	>10 µM
CCOC(=O)CCCCCOc1cccc(CN(C(=O)c2ccc(-c3cccc(OCC(C)C)c3)cc2)C(C)C)c1	-	BJ	>20 µM
NS(=O)(=O)c1ccc(C(=O)NC2CC3(C2)CC(c2nc4cc(Cl)ccc4o2)C3)o1	absorbance	Primary human hepatocytes	>100 µM
O=c1c(Cc2ccccc2)nc2ccccc2n1CC(O)CO	-	HepG2 2.2.15	>10 µM
O=C(NN1C(=O)c2c(F)c(F)c(F)c(F)c2C1=O)c1ccc(-n2cccc2)cc1	MTT	Lung adenocarcinoma cells	261 µM
CCOc1nc(N)nc2ccc(-c3ccc(NC(=O)OC)cc3)nc12	-	Huh7	>20 µM
C=CCCC1=NCC(O[Si](C)(C)C(C)(C)C)c2cc(OC)c(OC)cc21	-	BJ	<7.5 µM
CCOC(=O)c1c(C)nc(NCCCCNc2ccnc3cc(Cl)ccc23)nc1-c1ccc(F)cc1	MTS	MDCK cells	11.4 µM
Cc1cccc(-c2cc3c(-c4ccnc(NC5CCCC5)n4)ccc(NC4CCCC4)n3n2)c1	-	VERO 76	>40 µM
Nc1ncnc2c1c(-c1ccoc1)cn2[C@@H]1O[C@H](CO)[C@@H](O)[C@H]1F	XTT	Replicon cells	37.44 µM
CCOc1nc(N)nc2ccc(-c3ccc(NC(=O)[C@H](C)N)c(F)c3)nc12	-	Huh7	>20 µM
NNC(=O)c1ccncc1	MTT	Lung adenocarcinoma cells	>450 µM
CCCN(Cc1cccc(OCCCCCC(=O)OCC)c1)C(=O)c1ccc(Br)cc1	-	HEK 293	>20 µM
Nc1ncnc2c1c(-c1ccco1)cn2[C@@H]1O[C@H](CO)[C@@H](O)C1(F)F	XTT	Replicon cells	37.06 µM

The last 5 rows once more:

| SMILES | method | cell line | value |
|---|---|---|---|
| Nc1ncnc2c1c(-c1ccoc1)cn2[C@@H]1O[C@H](CO)[C@@H](O)[C@H]1F | XTT | Replicon cells | 37.44 µM |
| CCOc1nc(N)nc2ccc(-c3ccc(NC(=O)[C@H](C)N)c(F)c3)nc12 | - | Huh7 | >20 µM |
| NNC(=O)c1ccncc1 | MTT | Lung adenocarcinoma cells | >450 µM |
| CCCN(Cc1cccc(OCCCCCC(=O)OCC)c1)C(=O)c1ccc(Br)cc1 | - | HEK 293 | >20 µM |
| Nc1ncnc2c1c(-c1ccco1)cn2[C@@H]1O[C@H](CO)[C@@H](O)C1(F)F | XTT | Replicon cells | 37.06 µM |